Compound potency records, mixed from different reports. Data source: NIAID ChemDB in PubChem.

All rows: whole-cell or culture tests; organism: Rhinovirus

Rows are shuffled and stem from different studies. Percent inhibition refers to the dose given; in toxicity tests it is the harm to the cells. ECn: concentration that inhibits the pathogen or its effect by n%. Blank or dashed fields: not listed here.

SMILES,read by,dose,cell line,strain,read-out,value
O=S(=O)(O)c1cc(O)c2c(O)cc(S(=O)(=O)O)cc2c1,cytopathic effect,50 µg/mL,Human amnion AV3 cells,,inhibition,50%
CCO/N=C/c1ccc(OCCC2CCN(c3ccc(Cl)nn3)CC2)cc1,neutral red,,KB,5146 (ICAM-1 receptor group 24),EC50,0.002 µM
CCOC(=O)c1ccc(OCCC2CCN(c3ccc(C)nn3)CC2)cc1,cytopathic effect,,HELA-OHIO,Serotype 9 (group B),EC50,0.04 µM
CN(C)c1ccc(Cn2cnc3c(Nc4cccc(F)c4)nc(C(F)(F)F)nc32)cc1,plaque count,,M-HELA,Serotype 5,EC50,>80 µM
CSc1nsc(-c2ccc(OCCCCOc3ccc([N+](=O)[O-])cc3)cc2)c1C#N,cytopathic effect,,HELA-OHIO,Serotype 41 (group B),EC50,>0.5 µM
O=S(=O)([O-])c1ccc2c(NS(=O)(=O)c3ccccc3)cc(S(=O)(=O)[O-])cc2c1,cytopathic effect,10 µg/mL,Human embryonic lung cells,,inhibition,0%
CCOC(=O)c1ccc(OCCCCOc2ccc(-c3snc(SC)c3C#N)cc2)cc1,cytopathic effect,,HELA-OHIO,Serotype 2 (group B),EC50,>2 µM
Fc1cccc(Cn2cnc3c(Nc4cccc(F)c4)nc(C(F)(F)F)nc32)c1,plaque count,,M-HELA,Serotype 21,EC50,50 µM
Cc1cc(CCCOc2c(C)cc(-c3noc(C(F)(F)F)n3)cc2C)on1,cytopathic effect / visual reading,,OHIO HELA-I,Isolate 24,EC50,0.09 µg/mL
O=C(O)c1ccc(S(=O)(=O)[O-])cc1C(=O)O,cytopathic effect,5 µg/mL,Human embryonic lung cells,,inhibition,0%
Cc1cc(CCCCCOc2c(Cl)cc(C3=NCCO3)cc2Cl)on1,plaque count,,HeLa,TYPE 67,EC50,0.11 µg/mL
O=S(=O)(O)c1cc(O)c2c(O)c(N=Nc3ccccc3)c(S(=O)(=O)O)cc2c1,cytopathic effect,10 µg/mL,Human amnion AV3 cells,,inhibition,16%
Fc1ccc(Cn2cnc3c(Nc4cccc(F)c4)nc(C(F)(F)F)nc32)cc1,plaque count,,M-HELA,Serotype 4,EC50,13 µM
O=S(=O)(O)c1ccc2ccc(S(=O)(=O)O)cc2c1,cytopathic effect,50 µg/mL,Human amnion AV3 cells,,inhibition,0%
CCOC(=O)c1ccc(OCCCOc2ccc(-c3snc(SC)c3C#N)cc2)cc1,cytopathic effect,,HELA-OHIO,Serotype 42 (group A),EC50,>2 µM

2 of the rows above, restated:

SMILES | read by | dose | cell line | strain | read-out | value
O=S(=O)(O)c1ccc2ccc(S(=O)(=O)O)cc2c1 | cytopathic effect | 50 µg/mL | Human amnion AV3 cells |  | inhibition | 0%
CCOC(=O)c1ccc(OCCCCOc2ccc(-c3snc(SC)c3C#N)cc2)cc1 | cytopathic effect |  | HELA-OHIO | Serotype 2 (group B) | EC50 | >2 µM